From the supplement of paper PMC12637763
Residue numbers refer to the chain shown, from its start. The list shows a part of the results. Env chains of viruses from a treatment-interruption trial, translated from the printed DNA. IC50 / IC80 of two broadly neutralizing antibodies; lower = more sensitive virus; >50 µg/ml means not reached and <0.001 µg/ml is below the lowest dose. No active / inactive call.

How the values were obtained:
antibody 10-1074 [1] = assay: neutralization IC50; higher = virus less sensitive to the antibody
Procedure: (§1)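 Pseudovirus bearing the Env chain mixed with antibody, from 50 µg/ml in fivefold dilutions, on TZM-bl reporter cells, in duplicate.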

antibody 3BNC117 [2] = assay: as above
Procedure: as §1

antibody 10-1074 [3] = assay: neutralization IC80; higher = virus less sensitive to the antibody
Procedure: as §1

antibody 3BNC117 [4] = assay: as above
Procedure: as §1

B1: HIV-1 Env, rebound clone, placebo arm (protein)
chain: MIVMGMKRNWQQWWRGGILLLGMLMMICSAEDNAWVTVYYGVPVWREANVTLFCASDAKAYDTEVHNVWATHACVPTDPSPQEIKLENVTENFNMWKNNMVEQMHEDIISLWDQSLKPCVKLTPLCVTLNCTDYLGSNATNSTSGNNGTISNNITIEDSEKGEIKNCSFNVTTGIRDKMNKEYALLYKTDLVSIDNDNTSYRLISCNTSVITQACPKVTFEPIPIHYCAPAGFAILKCKDKKFNGTGPCKNVSTVQCTHGIRPVVSTQLLLNGSLAEEDVVIRSANFTNNAKVIIVQLNETVEINCTRPNNNTRKGINIGPGRAWYTIKDIVGDIRQAHCNISRPKWNRALEKIVEKLREQFGVNKTIVFNQSSGGDPEIVMHHFNCQGEFFYCNTTGLFNTRRNGTWNDTWENYTAGQGNNETITLPCRIRQIVNLWQEVGKAMYAPPIRGYINCSSNITGLLLVRDGGIKNSTNDTDNNTEIFRPGGGDMRDNWRSELYKYKVVQVEPVGIAPTRAKRRVVQREKRAVTLGAMFLGFLGTAGSTMGAASLTLTVQVRQLLSGIVQQQNNLLRAIEAQQHLLQLTVWGIKQLQARVLAVERYLRDQQILGIWGCSGKLICTTAVPWNTSWSNKSVDHIWGNMTWMQWEREIENYTGVIYKLLEESQNQQEKNEQDLLELDKWASLWTWFDITHWLWYIRLFIMIVGGLIGLRIVFAVFSLVNRVRQGYSPLSFQTHLPAPRGPDRPEGIEEEGGEPDRGRSVRLVNGFLALIWDDLRSLCLFSYHRLRDLLLIVTRIVELLGRRGWEAIKYLWNLLQYWSQELKNSAVSLLNAFAIAVAEGTDRVIEIIQGAFRAIIHIPRRIRQGLERSLL
What does the source list for B1?
neutralization IC50 (antibody 10-1074 [1]): 0.227 µg/mL; neutralization IC50 (antibody 3BNC117 [2]): 0.172 µg/mL; neutralization IC80 (antibody 10-1074 [3]): 0.884 µg/mL; neutralization IC80 (antibody 3BNC117 [4]): 0.822 µg/mL

B2: HIV-1 Env, rebound clone, placebo arm (protein)
chain: B1 chain with R404W, T416P
For B2, which “neutralization IC50” value (antibody 10-1074 [1]) is on record?
Its value is 0.347 µg/mL.

What about the “neutralization IC50” value (antibody 3BNC117 [2]) of the same binder?
The value was 0.387 µg/mL.

What about the “neutralization IC80” value (antibody 10-1074 [3]) of the same binder?
The value was 0.975 µg/mL.

And the “neutralization IC80” value (antibody 3BNC117 [4])?
Its value is 1.34 µg/mL.

B3: HIV-1 Env, rebound clone, placebo arm (protein)
chain: B1 chain with N99D, G398R, R404W
B3 was tested. Which “neutralization IC50” value (antibody 10-1074 [1]) did it give?
The value was 0.242 µg/mL.

What about the “neutralization IC50” value (antibody 3BNC117 [2]) of the same binder?
The value was 0.29 µg/mL.

What about the “neutralization IC80” value (antibody 10-1074 [3]) of the same binder?
Its value is 0.842 µg/mL.

What about the “neutralization IC80” value (antibody 3BNC117 [4]) of the same binder?
Its value is 1.97 µg/mL.

B4: HIV-1 Env, rebound clone, placebo arm (protein)
chain: B1 chain with N99D, G398R, R404W, E756K
How did the “neutralization IC50” value (antibody 10-1074 [1]) turn out when B4 was run?
The value was 0.262 µg/mL.

What about the “neutralization IC50” value (antibody 3BNC117 [2]) of the same binder?
The value was 0.44 µg/mL.

What about the “neutralization IC80” value (antibody 10-1074 [3]) of the same binder?
Its value is 0.916 µg/mL.

And the “neutralization IC80” value (antibody 3BNC117 [4])?
Its value is 1.46 µg/mL.

B5: HIV-1 Env, rebound clone, placebo arm (protein)
chain: B1 chain with N99D, G398R, R404W, I639T
B5 was tested. Which “neutralization IC50” value (antibody 10-1074 [1]) did it give?
Its value is 0.18 µg/mL.

And the “neutralization IC50” value (antibody 3BNC117 [2])?
The value was 0.39 µg/mL.

And the “neutralization IC80” value (antibody 10-1074 [3])?
The value was 0.776 µg/mL.

What about the “neutralization IC80” value (antibody 3BNC117 [4]) of the same binder?
The value was 1.27 µg/mL.

B6: HIV-1 Env, rebound clone, placebo arm (protein)
chain: B1 chain with N99D, R404W, G420D
Which results are given for B6?
neutralization IC50 (antibody 10-1074 [1]): 0.164 µg/mL; neutralization IC50 (antibody 3BNC117 [2]): 0.312 µg/mL; neutralization IC80 (antibody 10-1074 [3]): 0.607 µg/mL; neutralization IC80 (antibody 3BNC117 [4]): 1.09 µg/mL
